From PubChem BioAssay AID504848 (National Center for Advancing Translational Sciences (NCATS), 2011)
The list shows a part of the results, in another mix than the full data. Inconclusive results are not listed. Active and inactive are the calls of the source. Calls come from the whole dose curve; as a rule, active = well fitted inhibition curve with a large enough effect; inconclusive = small, poorly fitted or top-dose-only effect, or effect the other way; inactive = no such curve, though single readings can be large or run the other way.

Experiment: Confirmation screen for delayed death inhibitors of the malarial parasite plastid, 96 hour incubation; note: nearly all actives have a fitted effect of over 60% in size
Conditions: P. falciparum luciferase growth in erythrocytes
Potency is the fitted concentration of half-maximal effect.

SMILES | Potency
CP(=O)(Nc1ccc(SC(F)(F)F)cc1)Oc1ccccc1 (stereo unspecified) | active: 4.47 µM
